Anti-infective test results gathered from many reports (values: NIAID ChemDB through PubChem).

All rows: toxicity to cultured cells; cell line: CEM; endpoint: CC50

CCn is the concentration with n% toxicity to the cells. Conditions beyond the fields shown may differ between rows. An empty or dashed field is not shown.

structure,read by,result
Cn1c2ccccc2c(=O)c2c(O)cccc21,-,5.6 µg/mL
Cc1cn([C@@H]2O[C@H](CO)C(F)(F)C2(F)F)c(=O)[nH]c1=O,-,>100 µM
Cc1cn([C@@H]2O[C@@H]3CN[C@@]4(OCCOc5ccccc5)CS(=O)(=O)O[C@@]34[C@H]2O[Si](C)(C)C(C)(C)C)c(=O)[nH]c1=O,-,10.4 µM
Nc1ccn([C@@H]2O[C@@H](CO)C=C2F)c(=O)n1,-,>100 µM
CCO[C@]12CS(=O)(=O)O[C@@]13[C@@H](CN2)O[C@@H](n1cc(C)c(=O)[nH]c1=O)[C@@H]3O[Si](C)(C)CCC(C)(C)C,-,27 µM
Cc1cn([C@@H]2O[C@H](COP(=O)(N[C@@H](C)C(=O)OC(C)C)Oc3ccccc3)C(F)(F)C2(F)F)c(=O)[nH]c1=O,-,>100 µM
COc1ccc(N2CCN(CN3C(=O)C(=Nc4ccc(S(=O)(=O)Nc5nc(C)cc(C)n5)cc4)c4ccccc43)CC2)cc1,XTT,34.8 µM
NS(=O)(=O)c1ccc(NC(=O)c2cccc(SSc3cccc(C(=O)Nc4ccc(S(N)(=O)=O)cc4)c3)c2)cc1,-,>100 µM
Cc1cn([C@@H]2O[C@@H]3CN[C@@]4(OCCO)CS(=O)(=O)O[C@@]34[C@H]2O[Si](C)(C)C(C)(C)C)c(=O)[nH]c1=O,-,73 µM
CC(=O)N[C@@H]1OC(CO[Si](C)(C)C(C)(C)C)C2(OS(=O)(=O)C=C2N)C1O[Si](C)(C)C(C)(C)C,-,8 µM
Nc1ncnc2c1ncn2[C@@H]1O[C@H](CO)C(F)(F)C1(F)F,-,>100 µM
CCn1cc(C(=O)O)c(=O)c2cc(F)c(N3CCN(CN4C(=O)C(=Nc5ccc(S(=O)(=O)Nc6nc(C)cc(C)n6)cc5)c5cc(F)ccc54)C(C)C3)c(F)c21,XTT,115 µM
NC[C@H]1C[C@@H](n2cnc3c(N)ncnc32)[C@H](O)[C@@H]1O,-,117 µg/mL
Nc1ccccc1SSc1ccccc1N,-,53 µM
Cc1cn([C@H]2C=C[C@@H](COP(=O)(Nc3cc(C(=O)Nc4cc(C(=O)Nc5cc(C(=O)NCCC#N)n(C)c5)n(C)c4)n(C)c3)OC3CCCCC3)O2)c(=O)[nH]c1=O,MTT,192 µM
C[N+](C)(C)C.C[N+](C)(C)C.C[N+](C)(C)C.C[N+](C)(C)C.O=S(=O)([O-])c1cc(N=Nc2cc(S(=O)(=O)[O-])c3cccnc3c2O)ccc1/C=C/c1ccc(N=Nc2cc(S(=O)(=O)[O-])c3cccnc3c2O)cc1S(=O)(=O)[O-],-,>240 µM
Cc1cn([C@H]2C[C@H](N=[N+]=[N-])[C@@H](COP(=O)(Nc3cc(C(=O)Nc4cc(C(=O)NCCC(=N)N)n(C)c4)n(C)c3)OC3CCCCC3)O2)c(=O)[nH]c1=O,MTT,>200 µM
CCn1cc(C(=O)O)c(=O)c2cc(F)c(N3CCN(CN4C(=O)C(=Nc5ccc(S(=O)(=O)Nc6nc(C)cc(C)n6)cc5)c5cc(F)ccc54)CC3)cc21,XTT,117 µM
COc1nc(N)c(N=C[C@@H](O)[C@H](O)[C@H](O)CO)c(=O)n1C,XTT,>220 µM
Nc1nc2c(ncn2[C@H]2O[C@@H](CO)C=C2F)c(=O)[nH]1,-,>100 µM
O=c1ccn([C@@H]2O[C@H](CO)C(F)(F)C2(F)F)c(=O)[nH]1,-,>100 µM
Nc1ccccc1C(=O)Nc1ccc(S(N)(=O)=O)cc1,-,>100 µM
CC(C)(C)[Si](C)(C)OCC1O[C@@H](NC(=O)NC(=O)c2ccccc2)C(O[Si](C)(C)C(C)(C)C)C12OS(=O)(=O)C=C2N,-,10 µM
COc1c(N2CCN(CN3C(=O)C(=Nc4ccc(S(=O)(=O)Nc5nc(C)cc(C)n5)cc4)c4ccccc43)C(C)C2)c(F)cc2c(=O)c(C(=O)O)cn(C3CC3)c12,XTT,133 µM
CCS[C@]12CS(=O)(=O)O[C@@]13[C@@H](CN2)O[C@@H](n1cc(C)c(=O)[nH]c1=O)[C@@H]3O,-,>250 µM
O=c1ccn([C@H]2O[C@@H](CO)C=C2F)c(=O)[nH]1,-,>100 µM
Cc1cn([C@H]2C=C[C@@H](COP(=O)(Nc3cc(C(=O)Nc4cc(C(=O)Nc5cc(C(=O)NCCC#N)n(C)c5)n(C)c4)n(C)c3)OC(C)C)O2)c(=O)[nH]c1=O,MTT,188 µM
C[C@]1(Cn2cnc3c(=O)[nH]c(N)nc32)[C@@H](COCP(=O)(O)O)C1(F)F,-,>100 µM
Nc1nc(Cl)c2ncn([C@H]3O[C@@H](CO)C=C3F)c2n1,-,>100 µM
Cc1cn([C@@H]2O[C@H](CO[Si](C)(C)C(C)(C)C)[C@@]3(OS(=O)(=O)C=C3N)[C@H]2O[Si](C)(C)C(C)(C)C)c(=O)[nH]c1=O,-,>20 µM
C[C@]1(CO)[C@@H](Cn2cnc3c(=O)[nH]c(N)nc32)C1(F)F,-,>100 µM
Cc1cn([C@@H]2O[C@@H](CO)C=C2F)c(=O)[nH]c1=O,-,>100 µM
Cc1cn([C@@H]2O[C@@H]3CN[C@@]4(C(N)=O)CS(=O)(=O)O[C@@]34[C@H]2O[Si](C)(C)C(C)(C)C)c(=O)[nH]c1=O,-,>125 µM
Cc1cn([C@H]2C=C[C@@H](COP(=O)(Nc3cc(C(=O)Nc4cc(C(=O)Nc5cc(C(=O)Nc6cc(C(=O)NCCC(=N)N)n(C)c6)n(C)c5)n(C)c4)n(C)c3)OC(C)C)O2)c(=O)[nH]c1=O,MTT,>200 µM
Nc1nc(=O)n([C@@H]2O[C@@H](CO)C=C2F)cc1F,-,>100 µM

A second listing of 2 rows from above:

structure,read by,result
Cc1cn([C@@H]2O[C@H](CO[Si](C)(C)C(C)(C)C)[C@@]3(OS(=O)(=O)C=C3N)[C@H]2O[Si](C)(C)C(C)(C)C)c(=O)[nH]c1=O,-,>20 µM
COc1c(N2CCN(CN3C(=O)C(=Nc4ccc(S(=O)(=O)Nc5nc(C)cc(C)n5)cc4)c4ccccc43)C(C)C2)c(F)cc2c(=O)c(C(=O)O)cn(C3CC3)c12,XTT,133 µM